Data: ChEMBL document CHEMBL4251743, “Absolute Configuration and Pharmacology of the Poison Frog Alkaloid Phantasmidine” (J Nat Prod, 2018)

By UniProt entry, the sequences of proteins in these tests, tags left out. Where a name states a change or a piece, a line headed by the entry shows the natural chain unless it says otherwise.
UniProt P17787: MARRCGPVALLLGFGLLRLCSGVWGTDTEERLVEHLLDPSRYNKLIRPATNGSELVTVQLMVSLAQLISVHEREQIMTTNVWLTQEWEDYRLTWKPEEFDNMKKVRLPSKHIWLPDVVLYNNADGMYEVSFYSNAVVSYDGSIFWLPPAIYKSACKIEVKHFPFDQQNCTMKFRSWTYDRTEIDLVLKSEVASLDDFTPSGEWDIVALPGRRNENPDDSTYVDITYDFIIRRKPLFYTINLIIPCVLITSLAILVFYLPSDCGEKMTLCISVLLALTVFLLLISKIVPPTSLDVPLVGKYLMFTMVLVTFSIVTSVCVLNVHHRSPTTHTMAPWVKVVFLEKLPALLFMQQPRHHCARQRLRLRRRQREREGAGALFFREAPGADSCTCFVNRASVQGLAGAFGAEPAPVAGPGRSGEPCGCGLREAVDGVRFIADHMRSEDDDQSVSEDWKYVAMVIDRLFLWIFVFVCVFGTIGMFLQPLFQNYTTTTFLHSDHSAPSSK
UniProt P43681: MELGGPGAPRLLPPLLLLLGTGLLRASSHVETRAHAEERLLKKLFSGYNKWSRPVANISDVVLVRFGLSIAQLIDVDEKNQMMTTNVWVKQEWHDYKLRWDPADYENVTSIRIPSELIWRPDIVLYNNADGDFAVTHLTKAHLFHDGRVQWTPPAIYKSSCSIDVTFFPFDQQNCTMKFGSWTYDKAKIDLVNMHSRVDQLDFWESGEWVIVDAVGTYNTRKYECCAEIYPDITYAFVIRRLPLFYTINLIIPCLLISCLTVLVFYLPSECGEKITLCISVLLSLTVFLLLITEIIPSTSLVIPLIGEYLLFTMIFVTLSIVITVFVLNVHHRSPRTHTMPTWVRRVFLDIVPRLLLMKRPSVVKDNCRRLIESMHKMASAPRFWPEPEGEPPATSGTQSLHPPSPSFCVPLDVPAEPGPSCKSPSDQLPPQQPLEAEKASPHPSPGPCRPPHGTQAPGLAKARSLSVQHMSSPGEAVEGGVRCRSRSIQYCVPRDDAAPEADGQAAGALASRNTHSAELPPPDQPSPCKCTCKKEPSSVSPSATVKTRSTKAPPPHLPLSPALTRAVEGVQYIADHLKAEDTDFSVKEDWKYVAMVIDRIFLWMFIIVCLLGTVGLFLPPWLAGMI

Target: Neuronal acetylcholine receptor; alpha4/beta2 (Homo sapiens, UniProt P17787+P43681)
Assay: Agonist activity at human alpha4beta2 nAChR by cell-based rubidium flux assay relative to 100 uM nicotine
Outline: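 Stably transfected cells expressing rat α3β4 or human α4β2 nAChR were used near confluence. They were preloaded with 86Rb+, washed, stimulated with test agonist, and the medium was separated before lysis. Efflux was taken as medium counts over total counts. […] Results are the mean ± SEM of 3–4 independent experiments.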

Work on `CN1CCC[C@H]1c1ccccc1` yielded an Emax of 103%.
